Values of other authors in article PMC8606745 (Frontiers in Microbiology, 2021).

Legend:
Gram-negative bacteria [1] = conditions: Gram-negative bacteria against which activity was described; ref column References of Table 1; cited from earlier work
Gram-negative bacteria [2] = conditions: Gram-negative bacteria against which activity was described; ref column References of Table 1; cited from earlier work; remark: listed apart in the source

Compound | Described activity: Antibacterial (Gram-negative bacteria [1]) | Described activity: Antibiofilm (Gram-negative bacteria [2])
CC[C@H](C)[C@H](NC(=O)[C@H](C)NC(=O)[C@H](CCCCN)NC(=O)[C@@H]1CCCN1C(=O)[C@@H](NC(=O)[C@H](CC(C)C)NC(=O)[C@H](CO)NC(=O)[C@H](Cc1ccccc1)NC(=O)[C@H](CC(C)C)NC(=O)[C@@H](N)Cc1ccccc1)[C@@H](C)CC)C(=O)NCC(=O)NCC(=O)N[C@@H](CC(C)C)C(=O)N[C@H](C(=O)N[C@@H](CO)C(=O)N[C@@H](C)C(=O)N[C@@H](Cc1ccccc1)C(=O)N[C@@H](CCCCN)C(N)=O)[C@@H](C)CC [AamAP-S1] | Ec | 
CC[C@H](C)[C@H](NC(=O)[C@H](CCCNC(=N)N)NC(=O)[C@H](Cc1c[nH]c2ccccc12)NC(=O)[C@H](CCC(N)=O)NC(=O)[C@@H](N)C(C)C)C(=O)N[C@@H](CCCNC(=N)N)C(=O)N[C@H](C(=O)N[C@@H](CCCNC(=N)N)C(=O)N[C@H](C(=O)N[C@H](C(=O)N[C@@H](CCCCN)C(=O)N[C@@H](CCCCN)C(N)=O)[C@@H](C)CC)C(C)C)C(C)C [Peptide 1026] | Pa, Bc | Pa, Bc
CC[C@H](C)[C@H](NC(=O)[C@H](CCCNC(=N)N)NC(=O)[C@H](Cc1ccccc1)NC(=O)[C@H](CCC(N)=O)NC(=O)[C@@H](N)CCCCN)C(=O)N[C@@H](CCCNC(=N)N)C(=O)N[C@H](C(=O)N[C@@H](CCCNC(=N)N)C(=O)N[C@H](C(N)=O)C(C)C)C(C)C [Peptide 1029] | Pa, Bc | Pa, Bc
CC[C@H](C)[C@H](NC(=O)[C@H](CCCNC(=N)N)NC(=O)[C@H](Cc1ccccc1)NC(=O)[C@H](CCC(N)=O)NC(=O)[C@@H](N)C(C)C)C(=O)N[C@@H](CCCNC(=N)N)C(=O)N[C@H](C(=O)N[C@@H](CCCNC(=N)N)C(=O)N[C@H](C(=O)N[C@H](C(=O)N[C@H](C(=O)N[C@@H](CCCNC(=N)N)C(=O)N[C@@H](CCCCN)C(N)=O)[C@@H](C)CC)C(C)C)[C@@H](C)CC)C(C)C [Peptide 1036] | Pa, Bc | Pa, Bc
CC[C@H](C)[C@H](NC(=O)[C@H](CCCNC(=N)N)NC(=O)[C@H](Cc1ccccc1)NC(=O)[C@H](CCCNC(=N)N)NC(=O)[C@@H](N)CCCCN)C(=O)N[C@@H](CCCNC(=N)N)C(=O)N[C@H](C(=O)N[C@@H](CCCNC(=N)N)C(=O)N[C@H](C(N)=O)C(C)C)C(C)C [Peptide 1037] | – | Pa, Bc
CC[C@@H](C)[C@@H](NC(=O)[C@H](N)CCCNC(=N)N)C(=O)N[C@@H](C(=O)N[C@H](Cc1c[nH]c2ccccc12)C(=O)N[C@@H](C(=O)N[C@H](CCCNC(=N)N)C(=O)N[C@@H](C(=O)N[C@H](CCCNC(=N)N)C(=O)N[C@H](CCCNC(=N)N)C(=O)N[C@H](Cc1c[nH]c2ccccc12)C(=O)N[C@H](Cc1ccccc1)C(=O)N[C@@H](C(N)=O)C(C)C)[C@H](C)CC)C(C)C)C(C)C [RIJK2] |  | Pa, Kp
